Compound potency records, mixed from different reports. Data source: NIAID ChemDB in PubChem.

All rows: growth or infection tests; organism: Herpes simplex virus 1; cell line: E6SM; endpoint: EC50

ECn is the concentration giving n% inhibition of infection, replication or growth.

O=c1[nH]c(=O)n(C2C[C@H](CO)[C@@H](CO)C2)cc1I ; strain or isolate: KOS ; result: >100 µg/mL
COC(=O)[C@]1(C)CCC[C@]2(C)c3cc(Br)c4nc[nH]c4c3CCC12 ; method: plaque count ; result: >4 µg/mL
O=c1[nH]c(=O)n([C@H]2C[C@H](O)[C@@H](CO)O2)cc1/C=C/Br ; strain or isolate: KOS TK- acyclovir-resistant ; method: cytopathic effect ; result: >16 µM
Cc1cc([C@H]2C[C@H](O)[C@@H](CO)O2)c(F)cc1Cl ; strain or isolate: McIntyre ; method: cytopathic effect ; result: >400 µg/mL
Nc1ccnc(O[C@H]2CO[C@H](CO)[C@@H](O)C2)n1 ; strain or isolate: KOS ; method: cytopathic effect ; result: >20 µg/mL
Nc1nc(Cl)c2ccn([C@H]3CO[C@@H](CO)C3)c2n1 ; strain or isolate: VMW1837 (TK-) ; method: cytopathic effect ; result: >400 µg/mL
CC=NC(=N)c1nc(-c2ccccc2)n(C/C=C/c2ccccc2)n1 ; strain or isolate: KOS ; method: cytopathic effect ; result: >4 µg/mL
COC(=O)[C@]1(C)CCC[C@]2(C)c3cc4cc[nH]c4cc3CCC12 ; method: plaque count ; result: >4 µg/mL
CC(=O)OCCOCN1C=C(C#N)C(N)=NS1(=O)=O ; strain or isolate: B206 (TK-) ; result: >400 µg/mL
CC=NC(=N)c1nc(-c2cccc(C)c2)n(C/C=C/c2ccccc2)n1 ; strain or isolate: VMW 1837 ; method: cytopathic effect ; result: >4 µg/mL
COC(=O)[C@H](C)NP(=O)(OC[C@H]1O[C@@H](n2cc(/C=C/Br)c(=O)[nH]c2=O)C[C@@H]1O)Oc1ccc(Cl)cc1 ; strain or isolate: KOS ; method: cytopathic effect ; result: 0.015 µM
Cc1cn([C@@H]2CO[C@H](CO)[C@@H](O)C2)c(=O)[nH]c1=O ; strain or isolate: TK-/B2006 ; method: cytopathic effect ; result: >20 µg/mL
CC=NC(=N)c1nc(-c2ccccc2)n(COCCO)n1 ; strain or isolate: VMW 1837 ; method: cytopathic effect ; result: >40 µg/mL
O=c1[nH]c(=O)n([C@@H]2O[C@H](CO)[C@@H](O)[C@@H]2O)cc1/C=C/Br ; strain or isolate: KOS ; result: 1 µM
N#Cc1cc([C@H]2C[C@H](O)[C@@H](CO)O2)c(F)cc1F ; strain or isolate: VMW 1837 ; method: cytopathic effect ; result: >400 µg/mL
Nc1ccn(CC[C@H](O)CCO)c(=O)n1 ; strain or isolate: KOS ; method: cytopathic effect ; result: >400 µg/mL
CC(=O)OCCOCN1C=CC(=O)N(COCCO)S1(=O)=O ; strain or isolate: VMW1837 (TK-) ; result: >400 µg/mL
Cc1cn([C@H]2CO[C@H](CO)[C@@H](O)C2)c(=O)[nH]c1=O ; strain or isolate: TK-/TK+ (VMW 1837) ; method: cytopathic effect ; result: >20 µg/mL
CC=NC(=N)c1nc(-c2ccc(C)cc2)n(Cc2ccccc2)n1 ; strain or isolate: VMW 1837 ; method: cytopathic effect ; result: >4 µg/mL
CC(=O)OCCOCN1C=CC(=O)NS1(=O)=O ; strain or isolate: VMW1837 (TK-) ; result: >400 µg/mL
O=c1c2ncn(COC(CO)CO)c2nc2[nH]c(-c3ccccc3)cn12 ; strain or isolate: McIntyre ; method: cytopathic effect ; result: 0.005 µg/mL
OC[C@H]1O[C@H](c2ccc(F)cc2F)C[C@@H]1O ; strain or isolate: KOS ; method: cytopathic effect ; result: >400 µg/mL
CC=NC(=N)c1nc(-c2ccc(C)cc2)n(COCCO)n1 ; strain or isolate: KOS ; method: cytopathic effect ; result: >40 µg/mL
COC(=O)[C@]1(C)CCC[C@]2(C)c3ccc4[nH]cnc4c3CCC12 ; method: plaque count ; result: >4 µg/mL
Nc1ncnc2c1ncn2C1C[C@H](CO)[C@@H](CO)C1 ; result: 0.0001 µg/mL
CC=NC(=N)c1nc(-c2ccc(OC)cc2)n(C/C=C/c2ccccc2)n1 ; strain or isolate: KOS ; method: cytopathic effect ; result: >10 µg/mL
CC(=O)OCCOCN1C(=N)/C(=C(\C)O)C(N)=NS1(=O)=O ; strain or isolate: B206 (TK-) ; result: >400 µg/mL
Nc1nc(-n2c(-c3ccccc3)nc3ccc(Br)cc3c2=O)nnc1-c1cccc(Cl)c1Cl ; strain or isolate: KOS ; method: cytopathic effect ; result: 48 µg/mL
Cc1cn(CC[C@H](O)CCO)c(=O)[nH]c1=O ; strain or isolate: McIntyre ; method: cytopathic effect ; result: >400 µg/mL
C=C(N=CC)c1nc(-c2ccc(OC)cc2)n(C2O[C@H](CO)[C@@H](O)[C@H](O)[C@H]2O)n1 ; strain or isolate: KOS ; method: cytopathic effect ; result: 150 µg/mL
NC1=CC(N)=NS(=O)(=O)N1COCCO ; strain or isolate: KOS ; result: >400 µg/mL
Nc1nc2c(ccn2[C@H]2CO[C@@H](CO)C2)c(=O)[nH]1 ; strain or isolate: VMW1837 (TK-) ; method: cytopathic effect ; result: 300 µg/mL
Nc1nc2nn(CCOCP(=O)(O)O)nc2c(=O)[nH]1 ; strain or isolate: B2006 (TK-) ; method: cytopathic effect ; result: >400 µg/mL
C=C(N=CC)c1nc(-c2cccc(C)c2)n(C2O[C@H](CO)[C@@H](O)[C@H](O)[C@H]2O)n1 ; strain or isolate: VMW 1837 ; method: cytopathic effect ; result: 300 µg/mL
OC[C@H]1O[C@@H](c2cc(I)c(F)cc2F)C[C@@H]1O ; strain or isolate: KOS ; method: cytopathic effect ; result: >400 µg/mL
CO[C@H]1O[C@H](Cn2ccc(=O)[nH]c2=O)[C@H](O)[C@H]1OCc1ccccc1F ; strain or isolate: KOS ; method: cytopathic effect ; result: 9.6 µg/mL
OC[C@H]1O[C@H](c2cc(F)c(F)cc2F)C[C@@H]1O ; strain or isolate: McIntyre ; method: cytopathic effect ; result: >400 µg/mL
COC(=O)[C@]1(C)CCC[C@]2(C)c3cc(Br)c4nc(C)[nH]c4c3CCC12 ; method: plaque count ; result: >4 µg/mL
Cc1cc([C@@H]2C[C@H](O)[C@@H](CO)O2)c(F)cc1Cl ; strain or isolate: McIntyre ; method: cytopathic effect ; result: >400 µg/mL
Nc1ncnc2c1ncn2CC[C@H](O)CCO ; strain or isolate: VMW1837 (TK-) ; method: cytopathic effect ; result: >400 µg/mL
C/C(O)=C1\C(=N)N(COCCO)S(=O)(=O)N=C1N ; strain or isolate: F ; result: >400 µg/mL
Cc1cc([C@@H]2C[C@H](O)[C@@H](CO)O2)c(Cl)cc1F ; strain or isolate: KOS ; method: cytopathic effect ; result: >400 µg/mL
CO[C@H](CO)[C@@H](O)CCn1cnc2c(=O)[nH]c(N)nc21 ; strain or isolate: F ; method: cytopathic effect ; result: >400 µg/mL

The first 3 rows once more:

| smiles | strain or isolate | method | result |
|---|---|---|---|
| O=c1[nH]c(=O)n(C2C[C@H](CO)[C@@H](CO)C2)cc1I | KOS | - | >100 µg/mL |
| COC(=O)[C@]1(C)CCC[C@]2(C)c3cc(Br)c4nc[nH]c4c3CCC12 | - | plaque count | >4 µg/mL |
| O=c1[nH]c(=O)n([C@H]2C[C@H](O)[C@@H](CO)O2)cc1/C=C/Br | KOS TK- acyclovir-resistant | cytopathic effect | >16 µM |

An empty or dashed field is not shown. Rows are shuffled and stem from different studies.